Compound potency records, mixed from different reports. Data source: NIAID ChemDB in PubChem.

Common to all: growth or infection tests; organism: Herpes simplex virus 1; cells: PRK; method: cytopathic effect; measure: EC50

a–b is a range or a potency band. ECn is the concentration giving n% inhibition of infection, replication or growth. Conditions beyond the fields shown may differ between rows. An empty or dashed field is not shown.

compound	strain or isolate	value
Nc1ncnc2c1ncn2[C@@H]1C=C(CO)[C@@H](O)[C@@H]1O	KOS	>400 µg/mL
Nc1nc2c(ncn2[C@@H]2O[C@H](CO)[C@@H](O)[C@H]2N)c(=O)[nH]1	KOS	>200 µg/mL
Nc1nc(N)c2nnn([C@H]3CC[C@H](O)[C@H]3CO)c2n1	377	2.6 µg/mL
O=c1ccn(COCCO)c(=O)[nH]1		>400 µg/mL
Nc1ncnc2c1ncn2[C@H]1C[C@H](O)[C@@H](CO)O1	KOS	>200 µg/mL
CCCCCC[C@@H]([C@H](C)O)n1cnc2c(N)ncnc21	KOS F McIntyre	100 µg/mL
O=P(O)(O)OC[C@H]1OC(O)[C@@H](O)[C@@H](O)[C@@H]1O		>400 µg/mL
C=CCc1nc(C)n2c(=O)[nH]cnc12	KOS	>100 µg/mL
O=c1[nH]c(=O)n([C@H]2C[C@H](O)[C@@H](CO)O2)cc1I	McIntyre	0.15 µg/mL
[N-]=[N+]=N[C@H]1[C@H](O)[C@@H](CO)O[C@H]1n1cnc2c(N)ncnc21	KOS	>200 µg/mL
Nc1ncnc2c1ncn2C[C@H](O)CO	McIntyre	>400 µg/mL
Nc1nc(=O)n([C@H]2C[C@H](O)[C@@H](CO)O2)cc1Br	KOS F McIntyre	0.1 µg/mL
[N-]=[N+]=N[C@H]1[C@@H](F)[C@H](N2C=CC(N)NC2=O)O[C@@H]1CO	KOS	>400 µg/mL
Cc1nc2c(=O)[nH]c(N)nc2n1COCCO		0.5 µg/mL
O=c1[nH]c(=O)n([C@H]2C[C@H](O)[C@@H](CO)O2)cc1I	McIntyre	0.1 µg/mL
O=c1[nH]c(=O)n([C@H]2C[C@H](O)[C@@H](CO)O2)cc1Cc1ccccc1	KOS	120 µM
N=C(N)CCNC(=O)c1c[nH]c(NC(=O)c2c[nH]c(NC(=O)CC(=O)Nc3c[nH]c(C(=O)Nc4c[nH]c(C(=O)NCCC(=N)N)c4)c3)c2)c1		4 µg/mL
Cc1cn(COCCO)c(=O)[nH]c1=O		>400 µg/mL
Nc1ncnc2c1ncn2[C@@H]1O[C@H](CO)[C@@H](O)[C@@H]1O	KOS	4 µg/mL
Nc1ncnc2c1ncn2[C@@H]1C=C(CO)[C@@H](O)C1	KOS	100 µg/mL
Nc1nc(=O)n(C2CC(O)C(CO)O2)cc1CCCl	KOS	0.6 µg/mL
CON1CCc2c([nH]c3ccccc23)[C@@H]1[C@@H](N)CSC	B2006 (TK-)	>100 µg/mL
CCCc1cn([C@H]2C[C@H](O)[C@@H](COP(=O)(O)O)O2)c(=O)[nH]c1=O	McIntyre	2.6 µg/mL
CS(=O)(=O)Cc1cn([C@H]2C[C@H](O)[C@@H](CO)O2)c(=O)[nH]c1=O	KOS McIntyre F	4 µg/mL
O=c1[nH]c(=O)n([C@H]2C[C@H](O)[C@@H](CO)O2)cc1/C=C/Br	McIntyre	0.02 µg/mL
Nc1nc2c(ncn2COCCO)c(=O)[nH]1	KOS	0.06 µg/mL
O=c1[nH]c(=O)n([C@H]2C[C@@H](CO)[C@H](O)C2)cc1I	B2006 (TK-)	>400 µg/mL
O=c1[nH]c(=O)n([C@H]2C[C@H](O)[C@@H](CO)O2)cc1I	KOS F McIntyre	0.15 µg/mL
O=c1[nH]c(=O)n([C@H]2C[C@H](O)[C@@H](CO)O2)cc1I	KOS	<0.2 µg/mL
NC1CCCON2CCc3c([nH]c4ccccc34)[C@H]12	VMW1837 (TK-/TK+)	2 µg/mL
CN(C)c1cn([C@@H]2C[C@H](CO)[C@@H](O)C2)c(=O)[nH]c1=O	377	290 µg/mL
O=Cc1cn([C@H]2C[C@H](O)[C@@H](CO)O2)c(=O)[nH]c1=O	VDO374	0.4 µg/mL
Nc1nccc2c1ncn2[C@@H]1C[C@H](CO)[C@@H](O)[C@H]1O	KOS	≥200 µg/mL
O=c1[nH]c(=O)n([C@@H]2O[C@H](CO)[C@@H](O)[C@@H]2F)cc1I	KOS	<0.02 µg/mL
CSCc1cn([C@H]2C[C@H](O)[C@@H](CO)O2)c(=O)[nH]c1=O	B2006 (TK-)	>200 µg/mL
O=c1[nH]c(=O)n([C@H]2C[C@H](O)[C@@H](COP(=O)([O-])OP(=O)([O-])OC[C@@H]3OC(O)[C@H](O)[C@H](O)[C@H]3O)O2)cc1I	F	0.4 µg/mL
Nc1ccn([C@@H]2C[C@H](CO)[C@@H](O)[C@H]2O)c(=O)n1	B2006 (TK-)	4 µg/mL
Nc1nc(=O)n([C@@H]2O[C@H](CO)[C@@H](O)[C@@H]2F)cc1I	KOS	<0.02 µg/mL
N=C(N)CCNC(=O)c1c[nH]c(NC(=O)c2c[nH]c(NC(=O)c3ccc(CC(=O)Nc4c[nH]c(C(=O)Nc5c[nH]c(C(=O)NCCC(=N)N)c5)c4)cc3)c2)c1		10 µg/mL
O=c1[nH]c(=O)n([C@H]2CC[C@@H](CO)O2)cc1/C=C/Br	KOS	0.007 µg/mL
O=c1[nH]c(=O)n(COCCO)cc1[N+](=O)[O-]		>400 µg/mL
N=C(N)CCNC(=O)c1c[nH]c(NC(=O)c2c[nH]c(NC(=O)CCCCCCCC(=O)Nc3c[nH]c(C(=O)Nc4c[nH]c(C(=O)NCCC(=N)N)c4)c3)c2)c1		40 µg/mL
Nc1nc2c(nc(N3CCCCC3)n2COCCO)c(=O)[nH]1		70 µg/mL
O=c1[nH]c(=O)n([C@H]2C[C@H](O)[C@@H](COP(=O)(O)O)O2)cc1I	F	0.07 µg/mL
Nc1ncnc2c1ncn2C[C@H](O)CO	KOS	>400 µg/mL
[N-]=[N+]=Nc1cccc(/C=C/c2cn([C@H]3C[C@H](O)[C@@H](COP(=O)(O)O)O3)c(=O)[nH]c2=O)c1	F	>200 µg/mL
Nc1ncnc2c1ncn2C[C@@H](CO)OCP(=O)(O)O	McIntyre	1–3 µg/mL
Nc1ccn([C@@H]2O[C@H](CO)[C@@H](O)[C@@H]2O)c(=O)n1	KOS	0.05 µg/mL
CC(=O)Nc1nc2c(CC(O)CO)nc(C)n2c(=O)[nH]1	KOS	>400 µg/mL
[N-]=[N+]=NCc1cn([C@H]2C[C@H](O)[C@@H](CO)O2)c(=O)[nH]c1=O	VEO231	10 µg/mL
C=CCc1nc(C)n2c(=O)[nH]c(=S)[nH]c12	KOS	>40 µg/mL
CCc1cn([C@H]2C[C@H](O)[C@@H](COP(=O)(O)O)O2)c(=O)[nH]c1=O	McIntyre	1 µg/mL
N[C@@H]1[C@H](O)[C@@H](CO)O[C@H]1n1ccc(=O)[nH]c1=O	KOS	>200 µg/mL
O=c1[nH]c(=O)n([C@@H]2C[C@H](CO)[C@@H](O)C2)cc1I	McIntyre	0.2 µg/mL
CCc1cn([C@H]2C[C@H](O)[C@@H](CO)O2)c(=O)[nH]c1=O	F	0.7 µg/mL
O=c1[nH]c(=O)n([C@@H]2OC3COP(=O)(O)OC3[C@H]2O)cc1I	McIntyre	20 µg/mL
Nc1ncnc2c1ncn2C1CC(COP(=O)(O)O)[C@@H](O)[C@H]1O		7 µg/mL

A second listing of 5 rows from above:

compound	strain or isolate	value
Nc1nc(=O)n(C2CC(O)C(CO)O2)cc1CCCl	KOS	0.6 µg/mL
O=P(O)(O)OC[C@H]1OC(O)[C@@H](O)[C@@H](O)[C@@H]1O		>400 µg/mL
Nc1nc2c(ncn2COCCO)c(=O)[nH]1	KOS	0.06 µg/mL
NC1CCCON2CCc3c([nH]c4ccccc34)[C@H]12	VMW1837 (TK-/TK+)	2 µg/mL
Nc1ncnc2c1ncn2C[C@@H](CO)OCP(=O)(O)O	McIntyre	1–3 µg/mL